Compound potency records, mixed from different reports. Data source: NIAID ChemDB in PubChem.

Shared fields: whole-cell or culture tests; species: HIV-1; measure: EC50

Two numbers with a dash give a range or band. Rows are shuffled and stem from different studies. ECn is the concentration giving n% inhibition of infection, replication or growth. An empty or dashed field is not shown.

structure | cells | strain | conditions | read by | mutations | value
CCN1c2ncc(CCOc3ccc(NC(=O)Nc4ccc(C(=O)O)cc4)cc3C)cc2C(=O)N(C)c2cccnc21 | C8166 | - | - | p24 | RT-K103N Y181C | >0.05 µM
O=C(C(=O)N1CCN(C(=O)c2ccccc2)CC1)c1c[nH]c2c(Br)cccc12 | HeLa + HELA CD4+/CCR5 | - | - | luciferase | - | <10 µM
CCOP(=O)(CO[C@]1(C2CC2)C=C[C@H](n2cnc3c(N)ncnc32)C1)OCC | T4 | - | - | XTT / absorbance | - | 62.5 µM
Cc1cc(-c2c(C(OC(C)C)C(=O)O)c(C)nc3ccc(Cl)cc23)ccc1Cl | C8166 | - | - | luciferase / reporter gene | - | <20 µM
COc1ccc(-c2ncccc2OCC(=O)Nc2ccc(C(N)=O)cc2)cc1 | MT-4 | IIIB | - | MTT / absorbance | - | >176 µM
O=C(C1=C2C=CC=C3CCC(C=C1)C32)N1CC2CN(C(=O)c3ccccc3)CC2C1 | 293T | JR-CSF | pseudotyped | luciferase / single cycle | - | 100 µM
C[C@H]1[C@H](O)[C@@H](C)/C=C/C=C/C=C/C=C/C=C/C=C/C=C/[C@H](O[C@@H]2O[C@H](C)[C@@H](O)[C@H](N)[C@@H]2O)C[C@@H]2O[C@](O)(C[C@@H](O)C[C@@H](O)CC[C@H](O)[C@@H](O)C[C@@H](O)CC(=O)O[C@H]1C)C[C@H](O)[C@H]2C(=O)O | PBMC | 93BR019 CLADE BF X4 (SI) | - | p24 / RT activity | - | 1.6 µM
CC(C)C1=C2[C@H]3CC[C@@H]4[C@@]5(C)CC[C@H](OC(=O)CC(C)(C)C(=O)O)C(C)(C)[C@@H]5CC[C@@]4(C)[C@]3(C)CC[C@@]2(NC(=O)c2ccn(C)n2)CC1=O | MT-2 | IIIB | 30% human serum | RT activity | - | <0.199 µM
Cc1ccc(-c2ncccc2OCC(=O)Nc2ccc(S(N)(=O)=O)cc2)cc1 | MT-4 | IIIB | - | MTT / absorbance | - | >249 µM
CCC1CCCCN1CC(O)C1OC(C)(C)OC1c1cnn(-c2ccccc2)n1 | CEM + CEM-SS | IIIB | - | cytopathic effect / MTS | - | >100 µM
CC(C)C1=C2[C@H]3CC[C@@H]4[C@@]5(C)CC[C@H](OC(=O)CC(C)(C)C(=O)O)C(C)(C)[C@@H]5CC[C@@]4(C)[C@]3(C)CC[C@@]2(NC2CCN(C(=O)OC(C)(C)C)CC2)CC1=O | MT-2 | IIIB | 30% human serum | RT activity | - | <0.199 µM
C=C(C)[C@@H]1CC[C@]2(C(=O)NCCCCCCCC(=O)N[C@@H](CC(C)C)[C@@H](O)CC(=O)O)CC[C@]3(C)[C@H](CC[C@@H]4[C@@]5(C)CC[C@H](O)C(C)(C)[C@@H]5CC[C@]43C)[C@@H]12 | PBMC | APO 595 | - | p24 / RT activity | - | 0.2 µM
CC(=O)c1c(C)nc(-c2ccccc2)nc1NC(=O)c1ccccc1 | HeLa | 7324-1 | - | GFP / fluorescence | - | 1.2 µM
Cc1nc2ccc(Cl)cc2c(-c2ccc3ncccc3c2)c1C(OC(C)C)C(=O)O | C8166 | - | - | luciferase / reporter gene | - | <20 µM
O=C(O)c1ccc(NC(=O)c2ccccc2SSc2ccccc2C(=O)Nc2ccc(C(=O)O)cc2)cc1 | CEM | - | - | XTT | - | 3 µM
CC(C)C1=C2[C@H]3CC[C@@H]4[C@@]5(C)CC[C@H](OC(=O)[C@H]6C[C@@H](C(=O)O)C6(C)C)C(C)(C)[C@@H]5CC[C@@]4(C)[C@]3(C)CC[C@@]2(CCNC(=O)c2ccc3nc(-c4ccccc4)[nH]c3c2)CC1=O | MT-2 | 92HT599 | - | p24 / ELISA | - | <1 µM
CCCCOC(C(=O)O)c1c(C)nc2ccc(Br)cc2c1-c1ccc(Cl)cc1 | C8166 | - | - | luciferase / reporter gene | - | <20 µM
CC(C)C1=C2[C@H]3CC[C@@H]4[C@@]5(C)CC[C@H](OC(=O)CC(C)(C)C(=O)O)C(C)(C)[C@@H]5CC[C@@]4(C)[C@]3(C)CC[C@@]2(NC(=O)Nc2ccncn2)CC1=O | MT-2 | IIIB | 30% human serum | RT activity | - | <0.199 µM
COc1cccc2[nH]cc(C(=O)C(=O)N3CCN(C(=O)c4ccccc4)C[C@H]3C)c12 | HeLa + HELA CD4+/CCR5 | - | - | luciferase | - | <10 µM
Cc1cc(Cl)ccc1-c1c(C(OC(C)C)C(=O)O)c(C)nc2ccc(Cl)cc12 | C8166 | - | - | luciferase / reporter gene | - | <20 µM
O=C(Nc1ccc([N+](=O)[O-])cc1)c1ccccc1SSc1ccccc1C(=O)Nc1ccc([N+](=O)[O-])cc1 | CEM | - | - | XTT | - | 4 µM
CC(C)C1=C2[C@H]3CC[C@@H]4[C@@]5(C)CC[C@H](OC(=O)CC(C)(C)C(=O)O)C(C)(C)[C@@H]5CC[C@@]4(C)[C@]3(C)CC[C@@]2(NC(=O)Nc2ncccn2)CC1=O | MT-2 | IIIB | 30% human serum | RT activity | - | <0.199 µM
CC(C)(C)OC(=O)c1cccc(Cn2ccc3ccc(-c4ccc5ccn(Cc6cccc(C(=O)O)c6)c5c4)cc32)c1 | MAGI-CCR5 | BaL | - | entry / luminescence | - | 0.2 µM
CC(C)C1=C2[C@H]3CC[C@@H]4[C@@]5(C)CC[C@H](OC(=O)[C@H]6C[C@@H](C(=O)O)C6(C)C)C(C)(C)[C@@H]5CC[C@@]4(C)[C@]3(C)CC[C@@]2(CCNCC(F)NC(=O)c2ccc(Cl)cc2)CC1=O | MT-2 | 92HT599 | - | p24 / ELISA | - | <1 µM
Nc1ccccc1C(=O)N1CCN(C(=O)C(=O)c2c[nH]c3cccc(Cl)c23)CC1 | HeLa + HELA CD4+/CCR5 | - | - | luciferase | - | <10 µM
NS(=O)(=O)c1ccc(NS(=O)(=O)c2ccccc2SSc2ccccc2S(=O)(=O)Nc2ccc(S(N)(=O)=O)cc2)cc1 | CEM | - | - | XTT | - | >100 µM
COc1cccc(CN(C)c2cccc(-c3ccc4ccn(Cc5cccc(C(=O)O)c5)c4c3)c2)c1 | TZM-bl + HL2/3 | HXB2 | - | cell fusion / luminescence | - | 1.6 µM
O=C(C(=O)N1CCN(C(=O)c2ccccc2)CC1)c1c[nH]c2cc(F)c(F)cc12 | HeLa + HELA CD4+/CCR5 | - | - | luciferase | - | <10 µM
CCN1c2ncc(CCOc3ccc(C(=O)Nc4ccc(CC(=O)O)cc4)cc3C)cc2C(=O)N(C)c2cccnc21 | C8166 | IIIB | - | p24 | - | <0.01 µM
CN1CCN(CC(O)C2OC(C)(C)OC2c2cnn(-c3ccccc3)n2)CC1 | CEM + CEM-SS | IIIB | - | cytopathic effect / MTS | - | >100 µM
O=C(O)n1sc2ccccc2c1=O | CEM | - | - | XTT | - | 82 µM
CNCc1ccc2c(c1)[C@H](NC(=O)C(=O)Nc1ccc(Cl)c(F)c1)[C@@H](CN=C(N)N)C2 | Cf2Th-CD4/CCR5 | AD8 | - | luciferase / entry | - | >100 µM
CC(C)C1=C2C3CCC4[C@@]5(C)CC[C@H](OC(=O)CC(C)(C)C(=O)O)C(C)(C)C5CC[C@@]4(C)[C@]3(C)CC[C@@]2(NC(=O)c2ncccn2)CC1=O | MT-2 | IIIB | 30% human serum | RT activity | - | <0.199 µM
CCN1c2ncc(CCOc3ccc(C(=O)NNCC(=O)O)cc3C)cc2C(=O)N(C)c2cccnc21 | C8166 | IIIB | - | p24 | - | 0.01–0.05 µM
CC(C)C1=C2[C@H]3CC[C@@H]4[C@@]5(C)CC[C@H](OC(=O)[C@H]6C[C@@H](C(=O)O)C6(C)C)C(C)(C)[C@@H]5CC[C@@]4(C)[C@]3(C)CC[C@@]2(CCN(CCN(C)C)C(=O)c2ccc(Cl)cc2)CC1=O | MT-2 | 92HT599 | - | p24 / ELISA | - | <1 µM
CCC(=O)c1ccc(F)c([C@@H]2C[C@@H]2NC(=O)Nc2ccc(C#N)cn2)c1O | TZM-bl | LAI | - | β-galactosidase / luminescence | NNRTI-resistant (RT V90I) | 0.00098 µM
CC1CN(C(=O)C(=O)c2c[nH]c3cccc(F)c23)CCN1C(=O)c1ccccc1 | HeLa + HELA CD4+/CCR5 | - | - | luciferase | - | <10 µM
Cc1nc2ccc(Cl)cc2c(-c2cccc(O)c2)c1C(OC(C)C)C(=O)O | C8166 | - | - | luciferase / reporter gene | - | <20 µM
COc1cccc2c(C(=O)C(=O)N3CCN(C(=O)c4ccccc4)C[C@H]3C)c[nH]c12 | HeLa + HELA CD4+/CCR5 | - | - | luciferase | - | <10 µM
CCCC(C(=O)O)c1c(-c2ccc(Cl)cc2)c2cc(Cl)ccc2n(C)c1=O | C8166 | - | - | luciferase / reporter gene | - | <20 µM
CCOC(=O)c1ccc(NC(=O)COc2cccnc2-c2cccc3ccccc23)cc1 | MT-4 | IIIB | - | MTT / absorbance | - | >49.5 µM
CC(C)C1=C2[C@H]3CC[C@@H]4[C@@]5(C)CC[C@H](OC(=O)[C@H]6C[C@@H](C(=O)O)C6(C)C)C(C)(C)[C@@H]5CC[C@@]4(C)[C@]3(C)CC[C@@]2([C@@H](O)CNCc2ccc(CN3CCS(=O)(=O)CC3)cc2)CC1=O | MT-2 | 92HT599 | - | p24 / ELISA | - | <1 µM
CCN1c2ncc(CCOc3ccc(-c4cc(CC(=O)O)ccc4C)cc3C)cc2C(=O)N(C)c2cccnc21 | C8166 | - | - | p24 | RT-K103N Y181C | 0.01–0.05 µM
CC(C)C1=C2[C@H]3CC[C@@H]4[C@@]5(C)CC[C@H](OC(=O)CC(C)(C)C(=O)O)C(C)(C)[C@@H]5CC[C@@]4(C)[C@]3(C)CC[C@@]2(NC(=O)NC2CN(C(=O)OC(C)(C)C)C2)CC1=O | MT-2 | IIIB | 30% human serum | RT activity | - | <0.199 µM
CN1c2ccccc2C2C1C=C(C#N)C(=O)N2c1ccc([N+](=O)[O-])cc1 | HeLa | N119 | - | GFP / fluorescence | - | 0.13 µM
CC(C)(C)c1ccc(-c2ncccc2OCC(=O)Nc2ccc(S(N)(=O)=O)cc2)cc1 | MT-4 | IIIB | - | MTT / absorbance | - | >270 µM
CCCc1cc(=O)oc2c3c(c4c(c12)OC(C)(C)CC4)O[C@H](C)[C@@H](C)C3=O | - | - | - | cytopathic effect / XTT | RT-Y181C K103N | 6.19 µM
Cc1ccnc(C)c1C(=O)N1CCC(C)(N2CCN([C@@H](C)c3ccc(C(F)(F)F)cc3)[C@@H](C)C2)CC1 | U87 (CD4+ CCR5+) + U87 | JR-FL | - | luciferase / entry | - | 0.0015 µM
NS(=O)(=O)c1ccc(NC(=O)COc2cccnc2-c2ccc(C(F)(F)F)cc2)cc1 | MT-4 | IIIB | - | MTT / absorbance | - | >220 µM
Cc1nc2ccc(Cl)cc2c(-c2cnc3ccccc3c2)c1C(OC(C)C)C(=O)O | C8166 | - | - | luciferase / reporter gene | - | <20 µM
Nc1ncnc2c1ncn2[C@@H]1C[C@@](OCP(=O)(O)O)(C2CC2)[C@@H](O)[C@H]1O | T4 | - | - | XTT / absorbance | - | >100 µM
CCN1c2ncc(CCOc3ccc(C(=O)NS(C)(=O)=O)cc3C)cc2C(=O)N(C)c2cccnc21 | C8166 | IIIB | - | p24 | - | 0.01–0.05 µM
Cc1nnc(NC(=O)N[C@@]23CC[C@]4(C)C(CCC5[C@@]6(C)CC[C@H](OC(=O)CC(C)(C)C(=O)O)C(C)(C)C6CC[C@]54C)C2=C(C(C)C)C(=O)C3)o1 | MT-2 | IIIB | 30% human serum | RT activity | - | <0.199 µM
CC(=O)c1ccc(NC(=O)COc2cccnc2-c2cccc3ccccc23)c(Br)c1 | MT-4 | IIIB | - | MTT / absorbance | - | >5.51 µM
CC(C)C1=C2C3CCC4[C@@]5(C)CC[C@H](OC(=O)CC(C)(C)C(=O)O)C(C)(C)C5CC[C@@]4(C)[C@]3(C)CC[C@@]2(NC(=O)Nc2cccnc2)CC1=O | MT-2 | IIIB | 30% human serum | RT activity | - | <0.199 µM
Cc1cn([C@H]2C[C@H](N=[N+]=[N-])[C@@H](CO)O2)c(=O)[nH]c1=O | MT-4 | RES056 | - | MTT / absorbance | - | 0.011 µM
CCN1c2ncc(CCOc3ccc(NC(=O)C4CC4C(=O)O)cc3C)cc2C(=O)N(C)c2cccnc21 | C8166 | IIIB | - | p24 | - | <0.01 µM
CC(C)C1=C2[C@H]3CC[C@@H]4[C@@]5(C)CC[C@H](OC(=O)[C@H]6C[C@@H](C(=O)O)C6(C)C)C(C)(C)[C@@H]5CC[C@@]4(C)[C@]3(C)CC[C@@]2([C@@H](O)CNC(=O)c2ccc(CN3CCS(=O)(=O)CC3)cc2)CC1=O | MT-2 | 92HT599 | - | p24 / ELISA | - | <1 µM
CC1(C)OC(C(O)CN2CCCCC2)[C@H](c2cnn(-c3ccccc3)n2)O1 | CEM + CEM-SS | IIIB | - | cytopathic effect / MTS | - | >100 µM
CC(C)C1=C2[C@H]3CC[C@@H]4[C@@]5(C)CC[C@H](OC(=O)[C@H]6C[C@@H](C(=O)O)C6(C)C)C(C)(C)[C@@H]5CC[C@@]4(C)[C@]3(C)CC[C@@]2(CC(=O)NC(C)(CO)CNC(=O)c2ccc(Cl)cc2)CC1=O | MT-2 | 92HT599 | - | p24 / ELISA | - | <1 µM
CC(C)C1=C2C3CCC4[C@@]5(C)CC[C@H](OC(=O)CC(C)(C)C(=O)O)C(C)(C)C5CC[C@@]4(C)[C@]3(C)CC[C@@]2(NC(=O)C(C)N(C)C)CC1=O | MT-2 | IIIB | 30% human serum | RT activity | - | <0.199 µM